The list shows a part of the results, in another mix than the full data. Records with an inconclusive call do not appear. Calls of active or inactive are those of the source. Rule as the data show it: active = activity change below about -60%; inconclusive = no clear call, values can overlap the other calls; inactive = above about -39%.

Experimental findings from PubChem BioAssay AID1259415 (National Center for Advancing Translational Sciences (NCATS), 2018) are described below.
% is scaled to controls: 0 for no effect and ±100 for the full control effect.

The test can be described thus: qHTS Assay for inhibitors of the human cytomegalovirus (HCMV). The conditions noted are these: HFF cells, HCMV-luciferase reporter, 72 h; at 57.5 µM; stronger effect = lower value. From the text:
NCGC Assay Overview: Infection with human cytomegalovirus (HCMV) continues to pose significant threats for pregnant women and immunocompromised hosts. HCMV causes serious morbidity and mortality in transplant recipients, and congenital HCMV is the leading infectious cause of mental retardation and deafness in children. In the 1990s, the annual costs associated with the disease burden of congenital CMV were estimated at around $2 billion. A HCMV vaccine is not available yet and HCMV therapies result in intolerable side effects and emergence of drug resistant viruses. […] Towards this goal we have developed and characterized a luciferase HCMV reporter that was initially used in 96 well plates and then optimized to 1536-well plates for utilization in screening of the MLSMR collection, the NGCG diversity collection and the NCGC Pharmaceutical Collection of approved and investigational drugs.
NCGC Assay Protocol Summary:
This is a cell-based assay for HCMV inhibition in HFFs cells. The screening used 2 compound doses and the HCMV-luciferase at MOI of 1 PFU/cell. Cells were treated and infected with HCMV. At 72 h post infection cell lysates were collected and luciferase activity was determined using the Glomax-Multi + Detection System (Promega, Madison, WI). Data were normalized to the controls for basal activity (buffer only) and known HCMV inhibitors Salinmoycin.
1536-well assay protocol for the assay:
(1) Add 3 ul CMV/HFF cell culture. 1000 cells/well in DMEM nirmal media.
(2) Incubate 16 hr at 37C.
(3) Add 23 nl control compound, 10uM of Salinomycin.
(4) Add 23 nl compounds in DMSO solution.
(5) Add 3 ul CMV suspension. Final 1 puf/ul, Virus stock 2000pfu/ul
(6) Incubate 72 hrs at 37C.
(7) Add 4 ul OneGlo Luc Reagent.
(8) Incubate 5 min at room temperature.
(In qHTS, concentration-response curves come from the screen itself.)
For `O=C1C(O)=C([N+](=O)[O-])C(=O)C(O)=C1[N+](=O)[O-]`, the activity change, negative = inhibition is inactive: -34.2%.

In the case of `COc1ccc(Cl)cc1C(=O)NCC1(N2CCOCC2)CCCCC1`, the activity change, negative = inhibition was inactive: -1.66%.

With `CCOC(=O)N1CCC(Nc2ccc(OC)cc2)CC1`, the activity change, negative = inhibition was inactive: -15.6%.

On to `CCOc1ncccc1C(=O)NCC1(N2CCOCC2)CCCCC1`, for which the activity change, negative = inhibition is inactive: -1.34%. As to `CN1CCC(Nc2ccc(F)c(Cl)c2)CC1`, the activity change, negative = inhibition is inactive: 2.21%. Turning to `CC(C)(C)OC(=O)N1CCC(Nc2ccccc2)CC1`, the activity change, negative = inhibition is inactive: 11%. As to `NN(c1ccccc1)C1CCN(CCc2ccccc2)CC1`, the activity change, negative = inhibition was inactive: -24.2%.

On to `O=C(O)C1(Nc2ccccc2)CCN(Cc2ccccc2)CC1`, for which the activity change, negative = inhibition was inactive: 4.73%. In the case of `COc1cc(C(=O)NCC2(N3CCOCC3)CCCCC2)cc(OC)c1OC`, the activity change, negative = inhibition was inactive: 9.48%. `COc1cc(OC)cc(C(=O)NCC2(N3CCOCC3)CCCCC2)c1`: the activity change, negative = inhibition is inactive: -22.8%. For the molecule `CCC(CO)(C(=O)OC1CN2CCC1CC2)c1ccccc1` (stereo not given), the activity change, negative = inhibition is inactive: -12.4%. Regarding `CN1CCC(Nc2ccc(Cl)cc2)CC1`, the activity change, negative = inhibition was inactive: 20%. As for `CC(=O)N(c1ccccc1)C1CCNCC1`, the activity change, negative = inhibition was inactive: -23.7%. To `CN(C)C1(CNC(=O)c2ccc(C(C)(C)C)cc2)CCCCC1` belongs inactive: -15.9%; to `CCC(c1nnnn1C1CCCCC1)N1CCC(n2c(=O)[nH]c3ccccc32)CC1` (stereo not given), inactive: -37.9%. For `Cc1ccc(C(=O)NCC2(N3CCCCC3)CCCCC2)o1`, the activity change, negative = inhibition was inactive: -22.4%. As for `Cc1ccc(NC2(C#N)CCN(Cc3ccccc3)CC2)cc1`, the activity change, negative = inhibition is inactive: 17.1%. Turning to `Cc1ccccc1NC1(C#N)CCN(Cc2ccccc2)CC1`, the activity change, negative = inhibition was inactive: -2.69%. Regarding `CC(C)(C)n1nnnc1C(c1ccnc2ccccc12)N1CCC(n2c(=O)[nH]c3ccccc32)CC1` (stereo not given), the activity change, negative = inhibition was inactive: -3.72%.

Turning to `COc1ccc(C(c2nnnn2C2CCCCC2)N2CCC(n3c(=O)[nH]c4ccccc43)CC2)cc1` (stereo not given), the activity change, negative = inhibition was inactive: -24.8%. As for `CCN1CCC(Nc2cccc(F)c2)CC1`, the activity change, negative = inhibition is inactive: 5.04%. Take `Cc1ccccc1C(=O)NCC1(N(C)C)CCCCC1`: the activity change, negative = inhibition was inactive: 8.31%.

Consider `CC(C)(C)c1ccc(C(=O)NCC2(N3CCOCC3)CCCCC2)cc1`, for which the activity change, negative = inhibition was inactive: 4.27%. For the molecule `O=C(NCC1(N2CCCCC2)CCCCC1)c1ccco1`, the activity change, negative = inhibition was inactive: -12.2%. Regarding `CN(C)c1ccc(C(=O)NCC2(N3CCCCC3)CCCCC2)cc1`, the activity change, negative = inhibition was inactive: -14.4%. On to `O=C(NCC1(N2CCOCC2)CCCCC1)c1ccccc1[N+](=O)[O-]`, for which the activity change, negative = inhibition is inactive: 14.6%. To `N#Cc1ccc(C(=O)NCC2(N3CCCCC3)CCCCC2)cc1` belongs inactive: -13.6%; to `O=C(NCC1(N2CCOCC2)CCCCC1)c1ccc([N+](=O)[O-])cc1`, inactive: 9.53%. For `CCOC(=O)C(CC)C1=NC(C)(C)Cc2ccccc21.O=[N+]([O-])c1cc([N+](=O)[O-])c(O)c([N+](=O)[O-])c1` (stereo not given), the activity change, negative = inhibition was inactive: 0%. As to `CN(C)C1(CNC(=O)c2cccc(C#N)c2)CCCCC1`, the activity change, negative = inhibition was inactive: -9.18%. As for `c1ccc(CN2CCC(Nc3ccccc3)CC2)cc1`, the activity change, negative = inhibition was inactive: 18.7%. Consider `C/C(N)=N\P(=O)(Oc1ccccc1)Oc1ccccc1`, for which the activity change, negative = inhibition was inactive: -27.4%. Take `CCCN1CCC(Nc2cc(OC)cc(OC)c2)CC1`: the activity change, negative = inhibition was inactive: 31.7%. To `O=C(NCC1(N2CCOCC2)CCCCC1)c1ccccc1` belongs inactive: -2.29%. To `Cc1cc(N(CCCl)CCCl)ccc1C=O` belongs active: -70.7%; to `CC(C)(C)n1nnnc1C(c1cccc2ccccc12)N1CCC(n2c(=O)[nH]c3ccccc32)CC1` (stereo not given), inactive: -21.1%; to `O=C(NCC1(N2CCOCC2)CCCCC1)c1cc(Br)ccc1Cl`, inactive: -10.3%. With `O=c1[nH]c2ccccc2n1C1CCN(C(c2cccs2)c2nnnn2C2CCCCC2)CC1` (stereo not given), the activity change, negative = inhibition was inactive: -39.8%. In the case of `COc1ccc(C(=O)NCC2(N3CCOCC3)CCCCC2)cc1OC`, the activity change, negative = inhibition was inactive: 20.3%. As for `O=c1[nH]c2ccccc2n1C1CCN(C(c2ccnc3ccccc23)c2nnnn2C2CCCC2)CC1` (stereo not given), the activity change, negative = inhibition is inactive: -5.38%.

For `COc1cccc(C(c2nnnn2C(C)(C)C)N2CCC(n3c(=O)[nH]c4ccccc43)CC2)c1OC` (stereo not given), the activity change, negative = inhibition is inactive: -20.6%.

In the case of `CCOC(=O)N1CCC(Nc2ccc(C)cc2)CC1`, the activity change, negative = inhibition is inactive: -6.1%. Take `N/C(=N\O)c1c(N)no[n+]1[O-]`: the activity change, negative = inhibition was inactive: -16.6%. For the molecule `O=C(O)c1cccc(Nc2c([N+](=O)[O-])cc([N+](=O)[O-])cc2[N+](=O)[O-])c1`, the activity change, negative = inhibition is inactive: -27.2%. In the case of `O=c1[nH]c2ccccc2n1C1CCN(C(c2cccs2)c2nnnn2C2CCCC2)CC1` (stereo not given), the activity change, negative = inhibition was inactive: -38%.
